The record followed here is patent US6673827B1, “Methods of treating fungal infections with inhibitors of NAD synthetase enzyme” (priority 1999, dated 2004).

Molecules are shown by their SMILES.

Assay [1] concerns Candida tropicalis ATCC 750. Briefly: In vitro study of inhibition of growth and lethality against yeast (MIC/MLC susceptibility test), isolate A. Particulars: 2nd pair of lines, read at 48 hr, isolate assigned by line order, tested form: iodide.
In assay [2] the test system is Candida tropicalis ATCC 28707. Briefly: In vitro study of inhibition of growth and lethality against yeast (MIC/MLC susceptibility test), isolate B. In kind it is cell-based. The settings on record: 1st pair of lines, read at 48 hr, isolate assigned by line order, tested form: iodide.
In assay [3] the test system is Candida albicans KJP-000531594. Briefly: In vitro study of inhibition of growth and lethality against yeast (MIC/MLC susceptibility test), isolate C. The settings on record: 1st pair of lines, tested form: iodide.
In assay [4] the test system is Candida albicans LH-000664533. Briefly: In vitro study of inhibition of growth and lethality against yeast (MIC/MLC susceptibility test), isolate D. Type of assay: cell-based. Particulars: 2nd pair of lines, read at 48 hr, isolate assigned by line order, tested form: iodide.
Assay [5] concerns Cryptococcus neoformans DLB-1027594CNC. The assay is described as follows: In vitro study of inhibition of growth and lethality against yeast (MIC/MLC susceptibility test), isolate G. The settings on record: 1st pair of lines, isolate assigned by line order, tested form: iodide. Type of assay: cell-based.
The subject of assay [6] is Cryptococcus neoformans SLP-BC0012854. The assay is described as follows: In vitro study of inhibition of growth and lethality against yeast (MIC/MLC susceptibility test), isolate H. Particulars: 2nd pair of lines, isolate assigned by line order, tested form: iodide.

On to `C[n+]1c2c(cc3ccccc31)C(=O)OCCCCCCCCn1cc-2c2cc(OCc3ccccc3)ccc21`, for which the “Minimum Inhibitory Conc. (MIC), 48 hr.” value in assay [1] was 4 µg/mL; in assay [2] it was 0.5 µg/mL; in assay [3] (read at 48 hr, isolate assigned by line order), 4 µg/mL; in assay [4], 4 µg/mL; in assay [5] (read at 48 hr), 8 µg/mL; in assay [6] (read at 48 hr) it was 8 µg/mL. Further, the “Minimum Inhibitory Conc. (MIC), 24 hr.” value in assay [3] (read at 24 hr, isolate not given, assigned by line order and MLC of Table 4B) turned out to be 2 µg/mL. Besides, the “Minimum Inhibitory Conc. (MIC), 72 hr.” value in assay [5] (read at 72 hr) and in assay [6] (read at 72 hr) was 8 µg/mL in each case.
